Series [1] concerns Hantavirus nucleocapsid protein (NP), wild type (Sin Nombre virus). The series can be described thus: filter binding.
The test system is the same in series [2]. The experiment in a line: BLI. For orientation: BLI is a label-free optical method that tracks binding on a fibre tip over time.

As for “VCP mRNA 5' UTR point mutant (542nd AUG to AUC)”, the dissociation constant Kd was determined as 71 nM in series [1] and 16 nM in series [2].

The Kd is a measure of binding affinity in units of concentration. Lower therefore signals a tighter complex.
